A mixed list of measured activities; the numbers were collected in NIAID ChemDB.

Shared fields: enzyme or target tests; species: HIV-1; target: Integrase; endpoint: IC50

An empty or dashed field is not shown.

structure | changes | read by | result
Cc1c2c(c3c([nH]c4ccccc43)c1C)C(=O)N(CCN(C)C)C2=O |  | ELISA / strand transfer / luminescence | 16.94 µM
Cc1ccc(-c2c([C@H](OC(C)(C)C)C(=O)O)c(C)nc3ccccc23)cc1C | A128T | strand transfer / fluorescence | 0.0397 µM
CC1c2nc(C(=O)NCc3ccc(F)cc3)c(O)c(=O)n2CCN1Cc1cocn1 |  | ELISA | <10 µM
N#C/C(=C\c1ccc(O)c(O)c1)C(=O)OCc1ccccc1COC(=O)/C(C#N)=C/c1ccc(O)c(O)c1 |  | disintegration | 5.6 µM
Cn1nncc1CN1CCn2c(nc(C(=O)NCc3ccc(F)cc3)c(O)c2=O)C1(C)C |  | ELISA | <10 µM
Cc1cc(O)cc2c1[nH]c1c(C)cc3c(c12)C(=O)N(CCN(C)C)C3=O |  | ELISA / strand transfer / luminescence | 8.99 µM
OC1/C(=C/c2ccc(Cl)c(Cl)c2)CCC/C1=C\c1ccc(Cl)c(Cl)c1 |  | strand transfer | >100 µM
CN(C)CCN1C(=O)c2cc(C3CC3)c3[nH]c4ccc(O)cc4c3c2C1=O |  | ELISA / strand transfer / luminescence | 20.51 µM
CNC(=O)c1cn2ccn(Cc3ccc(F)cc3)c(=O)c2c(O)c1=O |  | ELISA | <0.01 µM
O=C1c2c(O)c(=O)n(-c3ccc(N4CCCCC4)cc3)c(=O)n2CCN1Cc1ccc(F)cc1 |  | strand transfer | <10 µM
O=C(O)c1ccccc1SCc1cc(O)ccc1O |  | 3′ processing / substrate cleavage | 10–100 µM
O=C(Cc1ccccc1)Nc1cn2ccn(Cc3cccc(Cl)c3)c(=O)c2c(O)c1=O |  | ELISA | <0.01 µM
O=C(O)/C(O)=C/C(=O)N(CCCc1ccc(-c2ccccc2)cc1)Cc1ccc(F)cc1 |  | strand transfer | <70 µM
O=C1c2c(O)c(=O)n([C@@H]3C[C@H]3c3ccccc3)c(=O)n2CCN1Cc1ccc(F)cc1 |  | strand transfer | <10 µM
CC(=O)N1CCc2nc(C(=O)NCc3ccc(F)cc3)c(O)c(=O)n2CC1 |  | ELISA | <10 µM
CN(Cc1ccc(Cl)cc1)C(=O)/C=C(\O)C(=O)O |  | strand transfer | <70 µM
CN(C)C(=O)c1cn2ccn(Cc3ccc(F)c(Cl)c3)c(=O)c2c(O)c1=O |  | ELISA | <0.01 µM
O=C1c2c(O)c(=O)n(C3CCCCCC3)c(=O)n2CCN1Cc1ccc(F)cc1 |  | strand transfer | <10 µM
CN1CCn2c(nc(C(=O)NCc3ccc(F)cc3)c(O)c2=O)C(NS(C)(=O)=O)C1 |  | ELISA | <10 µM
CN(C)CCN1C(=O)c2ccc3[nH]c4ccc(Cl)cc4c3c2C1=O |  | strand transfer / luminescence | 22.5 µM
O=c1c(-c2ccc(O)cc2)cn2ccn(Cc3cccc(Cl)c3)c(=O)c2c1O |  | ELISA | 0.01–0.1 µM
COc1ccc2[nH]c3c4[nH]c5ccccc5c4c4c(c3c2c1)C(=O)N(c1ccccc1)C4=O |  | ELISA / strand transfer / luminescence | >100 µM
O=C1c2c(O)c(=O)n(C3CCNCC3)c(=O)n2CCN1Cc1ccc(F)cc1 |  | strand transfer | <10 µM
CCOC(=O)C1C/C(=C\c2cc(O)c(O)c(O)c2)C(=O)/C(=C/c2cc(O)c(O)c(O)c2)C1 |  | strand transfer | 0.3 µM
Cc1cccc(CNC(=O)/C=C(\O)C(=O)O)c1 |  | strand transfer | <70 µM
CC1(C)c2nc(C(=O)NCc3ccc(F)cc3)c(O)c(=O)n2CCN1Cc1cn[nH]c1 |  | ELISA | <10 µM
CN(Cc1cccc(-c2ccccc2)c1)C(=O)/C=C(\O)C(=O)O |  | strand transfer | <70 µM
CC(C)(C)C(=O)OCCNC(=O)c1cn2ccn(Cc3cccc(Cl)c3)c(=O)c2c(O)c1=O |  | ELISA | 0.01–0.1 µM
COc1ccc2[nH]c3c(OC)cc4c(c3c2c1)C(=O)N(CCN(C)C)C4=O |  | ELISA / strand transfer / luminescence | 16.92 µM
CN(Cc1ccccc1Br)C(=O)/C=C(\O)C(=O)O |  | strand transfer | <70 µM
O=C(NCc1ccc(F)cc1)c1nc2n(c(=O)c1O)CCNC21CCOCC1 |  | ELISA | <10 µM
OC1/C(=C/c2ccc(Cl)c(Cl)c2)CSC/C1=C\c1ccc(Cl)c(Cl)c1 |  | strand transfer | >100 µM
N#C/C(=C\c1ccc(O)c(O)c1)C(=O)NCCCNC(=O)/C(C#N)=C/c1ccc(O)c(O)c1 |  | 3′ processing / substrate cleavage | 1.9 µM
CN(Cc1cccc(-c2ccc(F)cc2)c1)C(=O)/C=C(\O)C(=O)O |  | strand transfer | <70 µM
COc1ccc2[nH]c3c(C)cc4c(c3c2c1)C(=O)N(CCN(C)C)C4=O |  | ELISA / strand transfer / luminescence | 6.61 µM
N#C/C(=C\c1ccc(O)c(O)c1)C(=O)NC1CCC(CC2CCC(NC(=O)/C(C#N)=C/c3ccc(O)c(O)c3)CC2)CC1 |  | 3′ processing / substrate cleavage | 5–10 µM
COc1cc2c(c3c1[nH]c1ccc(O)cc13)C(=O)N(CCN(C)C)C2=O |  | ELISA / strand transfer / luminescence | 25.01 µM
CN(C)CC1c2nc(C(=O)NCc3ccc(F)cc3)c(O)c(=O)n2CCN1C(=O)C(=O)N(C)C |  | ELISA | <10 µM
O=C1/C(=C/c2cc(O)c(O)c(O)c2)CC/C1=C\c1cc(O)c(O)c(O)c1 |  | disintegration | 0.2 µM
O=C(/C=C(\O)C(=O)O)NCc1ccc(F)cc1 |  | strand transfer | <70 µM
N#C/C(=C\c1cc(O)c(O)c(O)c1)C(=O)NCCCNC(=O)/C(C#N)=C/c1cc(O)c(O)c(O)c1 |  | 3′ processing / substrate cleavage | 0.4 µM
CN1CCn2c(nc(C(=O)NCc3ccc(F)cc3)c(O)c2=O)C(N(C)Cc2ccccc2)C1 |  | ELISA | <10 µM

For reference, 4 entries again:

structure | changes | read by | result
N#C/C(=C\c1cc(O)c(O)c(O)c1)C(=O)NCCCNC(=O)/C(C#N)=C/c1cc(O)c(O)c(O)c1 |  | 3′ processing / substrate cleavage | 0.4 µM
CN(C)CCN1C(=O)c2ccc3[nH]c4ccc(Cl)cc4c3c2C1=O |  | strand transfer / luminescence | 22.5 µM
O=C(O)/C(O)=C/C(=O)N(CCCc1ccc(-c2ccccc2)cc1)Cc1ccc(F)cc1 |  | strand transfer | <70 µM
CN(Cc1ccc(Cl)cc1)C(=O)/C=C(\O)C(=O)O |  | strand transfer | <70 µM

ICn is the concentration giving n% inhibition. Two numbers with a dash give a range or band. Rows are shuffled and stem from different studies.